Share of PSTVd loop 15 variants by leaf site

From the data files of Wu et al. 2024, doi:10.1371/journal.ppat.1012142.

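Three N. benthamiana plants were inoculated with the whole mutant pool. Samples came from the inoculated region at 5 days, the leaf margin at 10 and upper systemic leaves at 12.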

Region: loop 15 of PSTVd (intermediate strain), upper and lower strand joined, each 5' to 3', the first 7 letters being the upper strand, closing pairs included. Wild type: GGAAACCGCUACUAC. Varied positions (N): GGAAACCGNNNNNNC.

Numbers give reads per thousand; 0 = not seen among the reads, higher = more abundant.
Each site shows the three plants.
"Pool" is the share in the plasmid pool used as inoculum, on the same scale.
The inoculated region was read from the minus strand, the other sites from the plus strand.
IR is the inoculated region, LM the leaf margin, Sys the systemic leaves.

sequence	pool	IR	LM	Sys
GGAAACCGAGCGCGC	0.208	0.262 / 0.209 / 0.0952	0 / 0 / 0.0401	0.0161 / 0 / 0
GGAAACCGUGACGUC	0.192	0.377 / 0.369 / 0.248	0 / 0 / 0.0200	0.0322 / 0.0151 / 0.0228
GGAAACCGCUUUACC	0.208	0.0983 / 0.0643 / 0.133	0 / 0.0223 / 0	0 / 0 / 0.0228
GGAAACCGUUUUGCC	0.240	0.115 / 0.0803 / 0.209	0.0162 / 0 / 0.0401	0 / 0 / 0
GGAAACCGUUACUUC	0.176	0.311 / 0.305 / 0.324	0.0647 / 0.0891 / 0.140	0.0322 / 0.0605 / 0.0684
GGAAACCGCACACAC	0.192	0.0491 / 0.112 / 0.0190	0 / 0 / 0.0200	0 / 0 / 0
GGAAACCGCGCAGCC	0.240	0.0655 / 0.0161 / 0.0190	0 / 0.0445 / 0.0401	0 / 0 / 0
GGAAACCGACCUCGC	0.256	0.164 / 0.177 / 0.0571	0 / 0 / 0.0601	0.0161 / 0.0303 / 0
GGAAACCGUGACAUC	0.208	0.115 / 0.0803 / 0.0381	0 / 0.0445 / 0	0 / 0 / 0
GGAAACCGAGGCUUC	0.256	0.0328 / 0.129 / 0.0381	0.0162 / 0 / 0	0 / 0 / 0
GGAAACCGGAUUUGC	0.144	0.0819 / 0.112 / 0.114	0 / 0 / 0.0200	0 / 0 / 0
GGAAACCGUUGCUCC	0.192	0.115 / 0.129 / 0.0762	0.0162 / 0 / 0	0 / 0 / 0
GGAAACCGCUCGUCC	0.176	0.295 / 0.321 / 0.248	0.0808 / 0.134 / 0.100	0.0644 / 0 / 0
GGAAACCGGCCAAAC	0.144	0.115 / 0.0803 / 0.0762	0.0162 / 0 / 0.0401	0 / 0 / 0
GGAAACCGCGGCUGC	0.304	0.0491 / 0.145 / 0.0381	0 / 0 / 0.0200	0.0161 / 0 / 0
GGAAACCGAAAACCC	0.176	0.0819 / 0.112 / 0.0952	0.0162 / 0 / 0	0 / 0 / 0
GGAAACCGGACUGUC	0.336	0.131 / 0.0643 / 0.0571	0.0162 / 0.0223 / 0.0200	0 / 0 / 0.0228
GGAAACCGUUCGCAC	0.240	0.229 / 0.273 / 0.514	0.0970 / 0.0668 / 0.0801	0.0322 / 0 / 0
GGAAACCGGGGAACC	0.208	0.147 / 0.112 / 0.171	0.0162 / 0 / 0	0 / 0 / 0
GGAAACCGUCGUAUC	0.112	0.0819 / 0.0964 / 0.114	0.0162 / 0 / 0.0401	0 / 0 / 0
GGAAACCGCCCCCUC	0.256	0.115 / 0.0803 / 0.190	0.0162 / 0 / 0.0200	0 / 0 / 0
GGAAACCGGAACGCC	0.208	0.0983 / 0.0643 / 0.0190	0.0162 / 0.0445 / 0	0 / 0 / 0
GGAAACCGGUCCUUC	0.192	0.0655 / 0.129 / 0.133	0.0162 / 0.0223 / 0	0 / 0 / 0
GGAAACCGUCGUACC	0.240	0.180 / 0.0321 / 0.0952	0.0485 / 0 / 0	0 / 0 / 0
GGAAACCGCAGCUAC	0.240	0.147 / 0.257 / 0.248	0.113 / 0.0445 / 0.160	0 / 0 / 0
GGAAACCGAGACGAC	0.272	0.0819 / 0.0803 / 0.114	0.0162 / 0 / 0	0 / 0 / 0
GGAAACCGAUUGUCC	0.256	0.295 / 0.353 / 0.457	0.0970 / 0.134 / 0.100	0.0483 / 0 / 0
GGAAACCGGACUCGC	0.160	0.197 / 0.0161 / 0.0952	0.0162 / 0.0223 / 0	0 / 0 / 0
GGAAACCGGCACUGC	0.288	0.0819 / 0.0964 / 0.0762	0 / 0 / 0.0401	0 / 0 / 0
GGAAACCGAUGCCCC	0.240	0.0819 / 0.0964 / 0.0762	0 / 0 / 0.0401	0 / 0 / 0
GGAAACCGUCAUCGC	0.304	0.0819 / 0.0964 / 0.0190	0.0323 / 0 / 0.0200	0 / 0 / 0
GGAAACCGUCUGCAC	0.240	0.131 / 0.112 / 0.0381	0 / 0 / 0	0 / 0 / 0
GGAAACCGGGUGUGC	0.192	0.164 / 0.0643 / 0.0952	0.0323 / 0 / 0.0601	0 / 0 / 0
GGAAACCGCCCCAGC	0.144	0.115 / 0.112 / 0.114	0.0647 / 0.0223 / 0.0200	0 / 0 / 0
GGAAACCGGGAGGCC	0.288	0.115 / 0.112 / 0.133	0.0323 / 0 / 0.0401	0 / 0 / 0
GGAAACCGCGGCCAC	0.128	0.0819 / 0.0803 / 0.0190	0 / 0 / 0.0200	0 / 0 / 0
GGAAACCGUCGCGUC	0.208	0.0983 / 0.112 / 0.0952	0 / 0 / 0	0.0161 / 0 / 0
GGAAACCGGGAUGAC	0.304	0.131 / 0.0803 / 0.0952	0 / 0 / 0	0 / 0 / 0
GGAAACCGUUGACCC	0.160	0.115 / 0.0803 / 0.0571	0.0162 / 0 / 0	0 / 0 / 0
GGAAACCGCCUCAAC	0.288	0.246 / 0.241 / 0.267	0.0323 / 0.0445 / 0	0.0161 / 0 / 0
GGAAACCGGUCCGGC	0.288	0.0983 / 0.112 / 0.0762	0 / 0 / 0	0 / 0 / 0
GGAAACCGACGAGGC	0.336	0.0491 / 0.145 / 0.0571	0 / 0 / 0.0200	0 / 0 / 0
GGAAACCGGUUAUCC	0.336	0.0819 / 0.112 / 0.114	0 / 0.0223 / 0.0401	0 / 0 / 0
GGAAACCGCUGUGCC	0.144	0.0819 / 0.0803 / 0.133	0 / 0 / 0	0 / 0 / 0
GGAAACCGCCAACGC	0.304	0.0491 / 0.0964 / 0.0762	0 / 0 / 0.0200	0 / 0 / 0.0228
GGAAACCGAAUUGAC	0.224	0.0328 / 0.0643 / 0.133	0.0162 / 0.0223 / 0	0 / 0 / 0
GGAAACCGUUUUGAC	0.288	0.0328 / 0.112 / 0.0762	0.0323 / 0 / 0.0401	0 / 0 / 0
GGAAACCGUAUACGC	0.272	0.0655 / 0.129 / 0.190	0 / 0 / 0.0200	0 / 0 / 0
GGAAACCGUCCCCGC	0.224	0.0491 / 0.112 / 0.133	0.0162 / 0.0223 / 0.0200	0 / 0 / 0
GGAAACCGAGCGGUC	0.224	0.966 / 0.787 / 0.609	0 / 0.0223 / 0	0 / 0 / 0
GGAAACCGUAAUACC	0.240	0.0983 / 0.112 / 0.0381	0 / 0 / 0.0601	0.0161 / 0 / 0

A selection of 5 entries from above:

| sequence | pool | IR | LM | Sys |
|---|---|---|---|---|
| GGAAACCGAGACGAC | 0.272 | 0.0819 / 0.0803 / 0.114 | 0.0162 / 0 / 0 | 0 / 0 / 0 |
| GGAAACCGUGACAUC | 0.208 | 0.115 / 0.0803 / 0.0381 | 0 / 0.0445 / 0 | 0 / 0 / 0 |
| GGAAACCGGAUUUGC | 0.144 | 0.0819 / 0.112 / 0.114 | 0 / 0 / 0.0200 | 0 / 0 / 0 |
| GGAAACCGUCGCGUC | 0.208 | 0.0983 / 0.112 / 0.0952 | 0 / 0 / 0 | 0.0161 / 0 / 0 |
| GGAAACCGAUUGUCC | 0.256 | 0.295 / 0.353 / 0.457 | 0.0970 / 0.134 / 0.100 | 0.0483 / 0 / 0 |

Samples held 43,870 to 66,106 reads, so the smallest values rest on one or two reads.
The authors trace changes outside the varied positions to PCR and sequencing errors or to mutation in the plant; presence does not show that a variant is infectious alone.
For reference, wild type rose from 33.9 per thousand in the pool to 202, 200, 159 (inoculated region), 724, 746, 710 (leaf margin) and 856, 883, 880 (systemic leaves).